Test results reported in patent US12139742B2, “Devices, systems, and methods for preparing a standardized inoculum for antimicrobial susceptibility testing” (Avails Medical, Inc., priority 2020, dated 2024).

Columns and labels:
[1] = tested on: 23 different positive blood culture (PBC) samples comprising seven different species of bacteria; experiment: VITEK 2 GN81 automated AST of 0.5 McFarland inocula (present method vs traditional subculture); format: cell-based; settings: for % CA: categorical agreement; for % EA: essential agreement
Protocol: (§1) Both the present method 1700 and traditional microbial subculturing techniques were used to prepare standardized 0.5 McFarland inocula for AST using Kirby-Bauer disk diffusion (see Table 1) and the automated VITEK2 GN81 AST platform (see Table 2).
(§2) Two sets of standardized 0.5 McFarland inocula were prepared from 23 different positive blood culture (PBC) samples comprising seven different species of bacteria. The 23 PBC samples included six samples of Escherichia coli (ECo), two samples of Enterobacter cloacae (ECl), three samples of Klebsiella pneumoniae (KPn), four samples of Klebsiella oxytoca (KOx), two samples of Citrobacter freundii (CFr), four samples of Serratia marcescens (SMa), and two samples of Klebsiella aerogenes (KAe).
(§3) The first set was prepared using the presently disclosed method 1700 (sample preparation time: between 60 minutes and 180 minutes) and the second set was prepared using traditional microbial subculturing techniques (sample preparation time: between 18 hours to 24 hours). The testing was conducted using the automated VITEK®2 GN81 AST platform (see Table 1) and manual Kirby-Bauer disk diffusion (see Table 2).

[2] = tested on: 23 different positive blood culture (PBC) samples comprising seven different species of bacteria; experiment: Kirby-Bauer disk diffusion AST of 0.5 McFarland inocula (present method vs traditional subculture); format: cell-based; settings: categorical agreement
Description: The standardized inoculum 1726 (e.g., the 0.5 McFarland inoculum) can then be used directly for antimicrobial susceptibility testing using manual disk diffusion or diluted further for automated AST platforms. For example, the standardized inoculum 1726 prepared using the method 1700 and system 1702 disclosed herein can be subjected to manual Kirby-Bauer disk diffusion AST or an automated AST platform such as the VITEK®2 platform.
as §1, §2, §3
In total, 296 minimum inhibitory concentrations (MICs) from the VITEK®2 GN81 platform and 224 zone sizes on disk diffusion were evaluated.

[3] = listed as piperacillin-tazobactam

With NCC[C@H](O)C(=O)N[C@@H]1C[C@H](N)[C@@H](O[C@H]2O[C@H](CN)[C@@H](O)[C@H](O)[C@H]2O)[C@H](O)[C@H]1O[C@H]1O[C@H](CO)[C@@H](O)[C@H](N)[C@H]1O [Amikacin] the “% CA” value [1] was 100% and the “% EA” value [1] was 95.7%.
In the case of CO[C@@]1(NC(=O)Cc2cccs2)C(=O)N2C(C(=O)O)=C(COC(N)=O)CS[C@@H]21 [Cefoxitin], the “% CA” value [1] was 100%, the “% EA” value [1] was 100% and the “% CA” value [2] was 100%.
With CC(C)(O/N=C(\C(=O)N[C@@H]1C(=O)N2C(C(=O)[O-])=C(C[n+]3ccccc3)CS[C@H]12)c1csc(N)n1)C(=O)O [Ceftazidime] the “% CA” value [1] was 100% and the “% EA” value [1] was 95.7%.
C[C@@H](O)[C@H]1C(=O)N2C(C(=O)O)=C(S[C@@H]3CN[C@H](C(=O)Nc4cccc(C(=O)O)c4)C3)[C@H](C)[C@H]12 [Ertapenem] was tested, and the “% CA” value [2] was 82.6% and the “% CA” value ([2]; listed as ertapenem) was 82.6%.
C[C@@H](O)[C@H]1C(=O)N2C(C(=O)O)=C(S[C@@H]3CN[C@H](C(=O)N(C)C)C3)[C@H](C)[C@H]12 [Meropenem] was tested, and the “% CA” value [1] was 100%, the “% EA” value [1] was 95.2% and the “% CA” value [2] was 91.3%.
NC[C@H]1O[C@H](O[C@H]2[C@H](O)[C@@H](O[C@H]3O[C@H](CO)[C@@H](O)[C@H](N)[C@H]3O)[C@H](N)C[C@@H]2N)[C@H](N)C[C@@H]1O [Tobramycin] was tested, and the “% CA” value [1] was 95.7%, the “% EA” value [1] was 100% and the “% CA” value [2] was 91.3%.
With Gentamicin the “% CA” value [1] was 87% and the “% EA” value [1] was 100%.
In the case of Piperacillin-tazobactam, the “% CA” value [1] was 88.9%, the “% CA” value [1, 3] was 88.9% and the “% EA” value [1] was 88.9%. For the same compound, the “% EA” value [1, 3] was 88.9% and the “% CA” value [2] was 100%.
